Anti-infective test results gathered from many reports (values: NIAID ChemDB through PubChem).

All rows: whole-cell or culture tests; agent: Candida tropicalis

Blank or dashed fields: not listed here.

SMILES	conditions	strain	measure	cell line	read by	value
O=C1C(OS(=O)(=O)c2ccc(Br)cc2)C(c2ccccc2)N1c1ccccc1	-	CP/K92	MIC	-	-	27.25 µM
CC1CC(=O)N(CCCc2ccccc2)C1=O	-	CCC 131-2000	MIC	-	broth dilution / turbidity	125 µg/mL
Fc1ccc(C(Cn2ccnc2)NCc2cccc3ccccc23)cc1	-	CBS 94 CA 44 CA 42	MIC	-	-	36.7 µg/mL
OC(CCn1ccnc1)c1ccc(-c2ccccc2)cc1	-	RTCC 1095	MIC	-	broth dilution	>64 µg/mL
Clc1ccc(C(Cn2ccnc2)OCc2csc3c(Cl)cccc23)c(Cl)c1	24 h	65 isolates	MIC50	-	absorbance	1 µg/mL
Nc1ncccc1-c1cc(Cc2ccc(COc3ccccn3)cc2)no1	-	8684	MIC	-	broth dilution	0.03 µg/mL
CCC(=O)OC1CCN(CC(O)(Cn2cncn2)c2ccc(F)cc2F)CC1	-	-	MIC80	-	broth dilution	0.159 µM
CC1C(=O)N(Cc2ccccc2)C(=O)C1C	-	CCC 131-2000	MIC	-	broth dilution / turbidity	125 µg/mL
CC1CC2=C(O1)c1ccccc1C(=O)C2=O	-	Clinical isolate	MIC	-	broth dilution	20.15 µg/mL
C=CCc1ccc(OC)c(OC)c1	-	ATCC 750	MIC90	-	turbidity	345 µg/mL
COc1cc(O)c2c(c1)C(=O)c1c(cc3c(c1O)-c1c(cc(C)c(C(=O)NC(CO)C(=O)O)c1O)[C@H](OC1OC(C)C(O)C(OC4OCC(O)C(O)C4O)C1O)C3O)C2=O	-	11 isolates	MIC50	-	-	8 µg/mL
Nc1ncccc1-c1cc(Cc2ccc(COc3ccccn3)cc2)no1	-	-	MIC50	-	broth dilution	0.016 µg/mL
CC1C(=O)N(c2ccccc2)C(=O)C1C	-	CCC 131-2000	MIC	-	broth dilution / turbidity	62.5 µg/mL
CCCCCCCCCCCCC(=O)OC1CCN(CC(O)(Cn2cncn2)c2ccc(F)cc2F)CC1	-	-	MIC80	-	broth dilution	1.922 µM
CCC(C)CC(C)CCCCCCCCC(=O)N[C@H]1C[C@@H](O)[C@H](NCCN)NC(=O)[C@@H]2[C@@H](O)CCN2C(=O)[C@H]([C@H](O)CCN)NC(=O)[C@H]([C@H](O)[C@@H](O)c2ccc(O)cc2)NC(=O)[C@@H]2C[C@@H](O)CN2C(=O)[C@H]([C@@H](C)O)NC1=O	-	-	MIC90	-	broth dilution	4 µg/mL
CCCCCOc1ccc(-c2cc(-c3ccc(C(=O)N[C@H]4C[C@@H](O)[C@@H](O)NC(=O)[C@@H]5[C@@H](O)[C@@H](C)CN5C(=O)[C@H]([C@H](O)CC(N)=O)NC(=O)[C@H]([C@H](O)[C@@H](O)c5ccc(O)c(OS(=O)(=O)O)c5)NC(=O)[C@@H]5C[C@@H](O)CN5C(=O)[C@H]([C@@H](C)O)NC4=O)cc3)no2)cc1	-	-	MIC90	-	broth dilution	0.016 µg/mL
c1ccc(C(Cn2ccnc2)NCc2cccc3ccccc23)cc1	-	CBS 94 CA 44 CA 32	MIC	-	-	40 µg/mL
OC(CCn1ccnc1)c1ccc(Br)cc1	-	RTCC 1095	MIC	-	broth dilution	>64 µg/mL
O=C1C(O)C(c2cccc3ccccc23)N1c1ccc(Br)cc1	-	CP/K92	MIC	-	-	38.46 µM
O=C(/C=C/c1ccc(Cl)cc1)OC1CCN(CC(O)(Cn2cncn2)c2ccc(F)cc2F)CC1	-	-	MIC80	-	broth dilution	0.124 µM
C[C@@H]1CC(=O)N(c2ccc(Cl)cc2)C1=O	-	CCC 131-2000	MIC	-	broth dilution / turbidity	62.5 µg/mL
Clc1ccc(C(Cn2ccnc2)NCc2cccc3ccccc23)cc1	-	CBS 94 CA 44 CA 33	MIC	-	-	47.8 µg/mL
CCCCCCCC(=O)OC1CCN(CC(O)(Cn2cncn2)c2ccc(F)cc2F)CC1	-	-	MIC80	-	broth dilution	0.139 µM
C(=C\c1ccccc1)/CNC(Cn1ccnc1)c1ccccc1	-	CBS 94 CA 44 CA 34	MIC	-	-	47.8 µg/mL
O=C(/C=C/c1cccc(Cl)c1)OC1CCN(CC(O)(Cn2cncn2)c2ccc(F)cc2F)CC1	-	-	MIC80	-	broth dilution	0.498 µM
OC(CCn1ccnc1)c1cccc(C(O)c2ccc(Cl)cc2)c1	-	RTCC 1095	MIC	-	broth dilution	>64 µg/mL
Clc1ccc(C(Cn2ccnc2)NCc2ccc(-c3ccccc3)cc2)c(Cl)c1	-	CBS 94 CA 44 CA 14	EC50	VERO	-	6 µg/mL
Cc1ccc(C(O)c2cccc(C(=O)CCn3ccnc3)c2)cc1	-	RTCC 1065	MIC	-	broth dilution	>64 µg/mL
CCCCCCCCC(=O)OC1CCN(CC(O)(Cn2cncn2)c2ccc(F)cc2F)CC1	-	-	MIC80	-	broth dilution	8.615 µM
CCC(C)CC(C)CCCCCCCCC(=O)N[C@H]1C[C@@H](O)[C@H](NCCN)NC(=O)[C@@H]2[C@@H](O)CCN2C(=O)[C@H]([C@H](O)CCN)NC(=O)[C@H]([C@H](O)[C@@H](O)c2ccc(O)cc2)NC(=O)[C@@H]2C[C@@H](O)CN2C(=O)[C@H]([C@@H](C)O)NC1=O	-	10 isolates	MIC	-	-	50 µg/mL
COC(=O)c1ccc(N2C(=O)C(OS(=O)(=O)c3ccc(C)cc3)C2c2ccc(OC)cc2)cc1	-	CP/K92	MIC	-	-	11.6 µM
C[C@@H](c1ncncc1F)[C@](O)(Cn1cncn1)c1ccc(F)cc1F	-	559-6.9	MIC	-	-	0.06 µg/mL
CCC(C)n1ncn(-c2ccc(N3CCN(c4ccc(OC[C@H]5CO[C@](Cn6cncn6)(c6ccc(Cl)cc6Cl)O5)cc4)CC3)cc2)c1=O	-	10 isolates	MIC90	-	-	1.6 µg/mL
CC(=O)OC1C(=O)N(c2ccccc2)C1c1ccc2c(c1)OCO2	-	CP/K92	MIC	-	-	154 µM
Cc1ccc(N2C(=O)C[C@@H](C)C2=O)cc1	-	CCC 131-2000	MIC	-	broth dilution / turbidity	62.5 µg/mL

A second listing of 5 rows from above:

SMILES,conditions,strain,measure,cell line,read by,value
Nc1ncccc1-c1cc(Cc2ccc(COc3ccccn3)cc2)no1,-,-,MIC50,-,broth dilution,0.016 µg/mL
Nc1ncccc1-c1cc(Cc2ccc(COc3ccccn3)cc2)no1,-,8684,MIC,-,broth dilution,0.03 µg/mL
Cc1ccc(C(O)c2cccc(C(=O)CCn3ccnc3)c2)cc1,-,RTCC 1065,MIC,-,broth dilution,>64 µg/mL
C=CCc1ccc(OC)c(OC)c1,-,ATCC 750,MIC90,-,turbidity,345 µg/mL
OC(CCn1ccnc1)c1cccc(C(O)c2ccc(Cl)cc2)c1,-,RTCC 1095,MIC,-,broth dilution,>64 µg/mL

MIC50, MIC90 and the like: level of inhibition, or share of isolates inhibited. ECn: concentration that inhibits the pathogen or its effect by n%. Lines come from different laboratories, so protocols vary.